Pooled drug test results. Numbers come from NIAID ChemDB, via PubChem.

Shared fields: whole-cell or culture tests

Rows are shuffled and stem from different studies.

structure,strain,cell line,species,dose,measure,read by,result
CCC,USSR/90/77 (H1),MDCK,Influenza A virus,,EC50,,>50 µM
CCCC(CCC)C(NC(C)=O)C1C(N=C(N)N)CC(C(=O)O)C1O,H1N1 A/Beijing/252/95,MDCK,Influenza A virus,,EC50,,0.18 µM
Nc1ccn([C@@H]2C=C(CO)[C@@H](O)[C@H]2O)c(=O)n1,,MDCK,Influenza C virus,,EC50,cytopathic effect,4.5 µg/mL
Nc1ncc(/C=N/O)c(NCC2(CO)CCC2)n1,B/GIFU/2/73,MDCK,Influenza B virus,,EC50,plaque count,14–32 µM
N=c1c2ncn([C@H]3C[C@H](O)[C@@H](CO)O3)c2ncn1O,TYPE A0/PR8/34,MDCK,Influenza virus,,EC50,cytopathic effect,10 µg/mL
CCC(CC)[C@H](NC(C)=O)[C@@H]1[C@H](O)[C@@H](C(=O)O)C[C@H]1N=C(N)N,Panama/45/90,MDCK,Influenza B virus,,EC50,,2.3 µM
Nc1nc(NCC2(CO)CCC2)cc(=O)[nH]1,B/GIFU/2/73,MDCK,Influenza B virus,,EC50,plaque count,>130 µM
N=c1c2ncn([C@@H]3O[C@H](CO)[C@@H](O)[C@H]3O)c2ncn1O,TYPE A0/PR8/34,MDCK,Influenza virus,,EC50,cytopathic effect,3.2 µg/mL
Nc1ncc(N)c(NCC2(CO)CC(Cc3ccccc3)C2)n1,B/GIFU/2/73,MDCK,Influenza B virus,,EC50,plaque count,3.2–25 µM
CCOC(=O)c1nc2cc(F)c(F)cc2[nH]c1=O,Maryland B,BSC-1/HELA,Influenza virus,,EC50,plaque count,<10 µg/mL
CCC(CC)O[C@@H]1C=C(C(=O)O)C[C@H](N)[C@H]1NC(C)=O,H1N1 isolate C9C,MDCK,Influenza A virus,,EC50,plaque count,0.3 µg/mL
Cc1ccccc1CO[n+]1cnc2c(ncn2[C@@H]2O[C@H](CO)[C@@H](O)[C@H]2O)c1N.F[B-](F)(F)F,TYPE A0/PR8/34,MDCK,Influenza virus,,EC50,cytopathic effect,320 µg/mL
Nc1nc(Cl)cc(NCC2(CO)CC(=O)C2)n1,B/GIFU/2/73,MDCK,Influenza B virus,,EC50,plaque count,>120 µM
C[C@@H]1C2CCCC(C2NCc2ccccc2)[C@@H]1C,,MDCK,Influenza B virus,,EC50,plaque count,>50 µM
Cc1nc(N)c2ncn([C@@H]3O[C@H](CO)[C@@H](O)[C@H]3O)c2n1,TYPE A0/PR8/34,MDCK,Influenza virus,,EC50,cytopathic effect,100 µg/mL
CC(N)C12CC3CC(CC(C3)C1)C2,Influenza A H3N2 isolate 90,MDCK,Influenza A virus,,EC50,ELISA,14.5 µg/mL
COC1(OC)CC(CO)(CNc2cc(Cl)nc(N)n2)C1,B/GIFU/2/73,MDCK,Influenza B virus,,EC50,plaque count,>99 µM
CCC1=C(CC)C2(C)CC[C@@H](C(C)C)C1C2N,,MDCK,Influenza B virus,,EC50,plaque count,>100 µM
N=C1c2ncn([C@@H]3O[C@H](CO)[C@@H](O)[C@H]3O)c2NCN1OCc1ccccc1,TYPE A0/PR8/34,MDCK,Influenza virus,,EC50,cytopathic effect,320 µg/mL
O=C(O)CCNS(=O)(=O)c1ccc2c(c1)Cc1ccccc1-2,B/LEE,CEF,Influenza B virus,31.7 µg/mL,inhibition,plaque count,29.6%
CCC(CC)[C@H](NC(C)=O)[C@@H]1[C@H](O)[C@@H](C(=O)O)C[C@H]1N=C(N)N,B/LEE/40,MDCK,Influenza B virus,,EC50,,3.2 µM
Nc1nc2c(ccn2[C@@H]2C[C@H](CO)[C@H](O)[C@@H]2O)c(=O)[nH]1,Influenza A/Victoria/3/75 (H3N2),,Influenza A virus,,MIC,,>100 µg/mL

For reference, 2 entries again:

structure,strain,cell line,species,dose,measure,read by,result
Nc1nc(NCC2(CO)CCC2)cc(=O)[nH]1,B/GIFU/2/73,MDCK,Influenza B virus,,EC50,plaque count,>130 µM
CCOC(=O)c1nc2cc(F)c(F)cc2[nH]c1=O,Maryland B,BSC-1/HELA,Influenza virus,,EC50,plaque count,<10 µg/mL

Inhibition is in % at the dose shown (toxicity tests: loss of growth or viability). An empty or dashed field is not shown. ECn: concentration that inhibits the pathogen or its effect by n%. a–b is a range or a potency band.